Experimental data from ChEMBL document CHEMBL1149314, “Synthesis of AZT 5'-triphosphate mimics and their inhibitory effects on HIV-1 reverse transcriptase” (J Med Chem, 2004).

Assay: Inhibition of HIV1 reverse transcriptase
Parameters: species or system Human immunodeficiency virus 1
In short: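 HIV reverse transcriptase (type B, 66 kDa subunit) at 2 nM with 1 µg/mL primed poly(A) RNA and 5 µM dTTP, in 50 mM Tris-HCl pH 8.1, 6.5 mM MgCl2, 100 mM NaCl and 10 mM DTT. Compounds were tested up to 500 µM final. Reactions were started with enzyme, run 10 min at 37 °C and stopped with EDTA. DNA was read by PicoGreen fluorescence (ex 480/em 538 nm), with no-enzyme or no-dTTP blanks. Percent inhibition was blank-corrected; Ki came from titration fitted to a competitive model.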

Cc1cn([C@@H]2C[C@@H](N=[N+]=[N-])[C@H](COP(=O)(O)OP(=O)(O)C(F)(F)P(=O)(O)F)O2)c(=O)[nH]c1=O
Ki: 852 nM
